Assay results reported in paper PMC12494546, “Structural basis of heme scavenging by the ChtA and HtaA hemophores in Corynebacterium diphtheriae” (The Journal of Biological Chemistry, 2025).

Assays:
Design in all cases: species or system Corynebacterium diphtheriae
ChtA^CR Y178A = test: ITC of hemin binding to ChtA^CR Y178A
Description: (§1) Protein samples were equilibrated in titration buffer supplemented with 5% (v/v) DMSO. […] Binding isotherms were fit to a one-site binding model using the program ORIGIN ([91]).

ChtA^CR K177G + Y178H = test: ITC of hemin binding to ChtA^CR K177G + Y178H
Description: as §1

[1] = test system: ChtA^CR (WT, residues K112-G291 of ChtA); test: ITC of hemin binding to ChtA^CR (WT)
ChtA^CR K177G = test: ITC of hemin binding to ChtA^CR K177G
Description: as §1

ChtA^CR Y178H = test: ITC of hemin binding to ChtA^CR Y178H
Description: as §1

Substance: hemin
- ΔG° (ChtA^CR Y178A; 25 °C): -10.1 kcal/mol
- ΔH° (ChtA^CR Y178A; 25 °C): -6.4 ± 0.3 kcal/mol
- −TΔS° (ChtA^CR Y178A; 25 °C (298 K)): -3.7 kcal/mol
- ΔG° (ChtA^CR K177G + Y178H; 25 °C): -10.3 kcal/mol
- ΔH° (ChtA^CR K177G + Y178H; 25 °C): -9.9 ± 0.2 kcal/mol
- −TΔS° (ChtA^CR K177G + Y178H; 25 °C (298 K)): -0.5 kcal/mol
- TΔS° [1]: 0.5 kcal/mol
- hemin binding stoichiometry parameter n ([1]; 5 replicates, copies of ChtA^CR per hemin): 1.79 ± 0.166
- −TΔS° ([1]; 25 °C (298 K)): 0.5 kcal/mol
- ΔH° (ChtA^CR K177G; 25 °C): -14.5 ± 0.3 kcal/mol
- −TΔS° (ChtA^CR K177G; 25 °C (298 K)): 4 kcal/mol
- ΔG° (ChtA^CR Y178H; 25 °C): -9.7 kcal/mol
- ΔH° (ChtA^CR Y178H; 25 °C): -12.1 ± 0.4 kcal/mol
- −TΔS° (ChtA^CR Y178H; 25 °C (298 K)): 2.4 kcal/mol
